From paper PMC4721062, “Oxadiazole-2-oxides may have other functional targets, in addition to SjTGR, through which they cause mortality in Schistosoma japonicum” (Parasites & Vectors, 2016)

Columns and labels:
[1] = Nitric oxide (NO) release on incubation with cysteine; conditions: 10 μM compound incubated with 5 mM cysteine, 50 min, room temperature
[2] = system: SjTGR; assay: NO production on incubation with SjTGR alone or SjTGR + NADPH; format: biochemical, Schistosoma japonicum; conditions: 10 μM compound, 50 min; for NO production, SjTGR + NADPH: 15 nM SjTGR + 100 μM NADPH; for NO production, SjTGR: 15 nM SjTGR alone
[3] = system: S. japonica adult worm homogenate supernatant; assay: NO production on incubation with worm homogenate supernatant; set-up: species or system Schistosoma japonicum; conditions: 10 μM compound, worm homogenate (100 μg), 50 min

SMILES | NO released [1] | NO production, SjTGR + NADPH [2] | NO production, SjTGR [2] | NO production, Worm homogenate supernatant [3]
COc1ccc(-c2no[n+]([O-])c2CO)cc1 [Compound 4a] | did not release NO | – | – | –
N#Cc1c(-c2ccc(OCCCBr)cc2)no[n+]1[O-] [Compound 13] | 8.6 ± 0.4 µM | 7.5 ± 1.0 µM | 5.2 ± 0.3 µM | 8.6 ± 1.1 µM
N#Cc1c(-c2ccc(CBr)cc2)no[n+]1[O-] [Compound 22] | 9.0 ± 0.1 µM | 7.3 ± 1.5 µM | 4.2 ± 0.3 µM | 7.5 ± 0.5 µM
N#Cc1c(-c2ccc(COc3ccccc3)cc2)no[n+]1[O-] [Compound 23] | did not release NO | 3.5 ± 0.3 µM | 3.2 ± 0.1 µM | 7.7 ± 1.4 µM
N#Cc1c(-c2ccc(OC/C=C/CBr)cc2)no[n+]1[O-] [Compound 16] | 8.3 ± 0.0 µM | 5.0 ± 0.3 µM | 2.5 ± 0.4 µM | 9.4 ± 1.2 µM
N#Cc1c(-c2ccc(COc3ccc(C=O)cc3)cc2)no[n+]1[O-] [Compound 26] | did not release NO | 6.2 ± 1.2 µM | 3.0 ± 0.8 µM | 9.8 ± 1.8 µM
N#Cc1c(-c2ccc(OCc3ccccc3)cc2)no[n+]1[O-] [Compound 19] | did not release NO | – | – | –
Cc1ccc(-c2no[n+]([O-])c2CO)cc1 [Compound 4b] | did not release NO | 6.5 ± 0.9 µM | 3.8 ± 0.7 µM | 7.6 ± 0.7 µM
C#CCOc1ccc(-c2no[n+]([O-])c2C#N)cc1 [Compound 20] | 8.8 ± 0.7 µM | 6.3 ± 0.5 µM | 4.0 ± 0.5 µM | 7.8 ± 1.1 µM
O=C(C1CCCCC1)N1CC(=O)N2CCc3ccccc3C2C1 (stereo not shown) [PZQ, praziquantel, reference compound] | – | 7.3 ± 0.8 µM | 7.2 ± 0.4 µM | 12.1 ± 2.1 µM
N#Cc1c(-c2ccc(Br)cc2)no[n+]1[O-] [Compound 7c] | 9.0 ± 0.5 µM | 9.2 ± 0.1 µM | 6.0 ± 0.1 µM | 10.9 ± 1.2 µM
